The source of these data is patent publication US10208000B2, “Eis inhibitors” (priority 2015, dated 2019).

In this experiment the test system is Mtb K204. Format: cell-based, Mycobacterium tuberculosis.
`CN(c1ccccc1)S(=O)(=O)c1ccc2[nH]c(=O)c(=O)[nH]c2c1` [Compound 33]: the “overcoming KAN resistance in Mtb K204 (in words)” value (“overcoming KAN resistance” below) is reported as “did not overcome KAN resistance”.

As to `CCc1cccc(N(C)S(=O)(=O)c2ccc3[nH]c(=O)c(=O)[nH]c3c2)c1` [Compound 42], the “overcoming KAN resistance” value was “did not produce compounds capable of overcoming KAN resistance”.

Consider `CN(c1cccc(C(C)(C)C)c1)S(=O)(=O)c1ccc2[nH]c(=O)c(=O)[nH]c2c1` [Compound 45], for which the “overcoming KAN resistance” value is on record as “did not produce compounds capable of overcoming KAN resistance”.
